Pooled drug test results. Numbers come from NIAID ChemDB, via PubChem.

Shared fields: tests in culture; organism: Cowpox virus; measure: EC50

ECn: concentration that inhibits the pathogen or its effect by n%. An empty or dashed field is not shown. Lines come from different laboratories, so protocols vary.

Nc1ncnc2c1ncn2C[C@@H](CO)OCP(=O)(O)O ; cell line: HEL ; strain: Brighton ; value: 0.23 µg/mL
Cc1cn([C@H]2C[C@H](N=[N+]=[N-])[C@@H](CO)O2)c(=O)[nH]c1=O ; cell line: VERO ; value: >374 µM
Nc1nc(NCC(F)(F)F)c2ncn(CCOCP(=O)(O)O)c2n1 ; cell line: HFF ; strain: Brighton ; value: >270 µM
Nc1ccn(C[C@@H](CO)OCP(=O)(O)O)c(=O)n1 ; cell line: VERO ; value: 62 µM
Nc1nc2c(ncn2COCCOP2(=O)OCc3ccccc3O2)c(=O)[nH]1 ; cell line: VERO 76 ; value: >99 µg/mL
Nc1ccn(C[C@@H](CO)OCP(=O)(O)O)c(=O)n1 ; cell line: VERO ; value: 45 µM
O=C1Nc2ccc(Cl)cc2[C@@](C#CC2CC2)(C(F)(F)F)O1 ; cell line: HFF ; value: >300 µM
Nc1ccn([C@@H]2CS[C@H](CO)O2)c(=O)n1 ; cell line: VERO ; value: >436 µM
Nc1ccn(C[C@@H](CO)OCP(=O)(O)O)c(=O)n1 ; cell line: 3T3 ; value: 3.2 µM
Cc1cn([C@H]2C[C@H](N=[N+]=[N-])[C@@H](CO)O2)c(=O)[nH]c1=O ; cell line: HFF ; value: >300 µM
Nc1ccn(C[C@H]2COP(=O)(O)CO2)c(=O)n1 ; cell line: VERO 76 ; strain: Brighton strain wild type ; value: 57 µM
Cc1cn([C@H]2C=C[C@@H](CO)O2)c(=O)[nH]c1=O ; cell line: HFF ; value: >300 µM
Nc1ncnc2c1ncn2C[C@@H](CO)OCP(=O)(O)O ; cell line: VERO 76 ; strain: Brighton strain wild type ; value: 4.2 µM
Cc1ccnc2c1NC(=O)c1cccnc1N2C1CC1 ; cell line: HFF ; value: >300 µM
O=c1[nH]cnc2c1ncn2[C@H]1CC[C@@H](CO)O1 ; cell line: VERO ; value: >423 µM
CCOC(=O)CC1OP(=O)(OC[C@H]2O[C@@H](n3cc(/C=C/Br)c(=O)[nH]c3=O)C[C@@H]2O)Oc2cccc(Cl)c21 ; cell line: VERO 76 ; value: >99 µg/mL
Nc1ccn(C[C@H]2COP(=O)(O)CO2)c(=O)n1 ; cell line: 3T3 ; value: 12.3 µM
CC(C)c1nc(CN(C)C(=O)N[C@H](C(=O)N[C@@H](Cc2ccccc2)C[C@H](O)[C@H](Cc2ccccc2)NC(=O)OCc2cncs2)C(C)C)cs1 ; cell line: HFF ; value: >300 µM
COc1c(C)c2c(c(O)c1C/C=C(\C)CCC(=O)O)C(=O)OC2 ; cell line: VERO 76 ; strain: Brighton strain wild type ; value: 3.2 µM

A second listing of 2 rows from above:

SMILES,cell line,strain,value
Nc1ccn(C[C@@H](CO)OCP(=O)(O)O)c(=O)n1,VERO,-,62 µM
Nc1ccn(C[C@@H](CO)OCP(=O)(O)O)c(=O)n1,VERO,-,45 µM